# Test results as given in patent publication US9394295B2, “Antibacterial homopiperidinyl substituted 3,4-dihydro-1H-[1,8]naphthyridinones” (Janssen Sciences Ireland UC, priority 2011, dated 2016).
# By UniProt entry, the sequences of proteins in these tests, tags left out.
# UniProt Q6GI75, whole entry: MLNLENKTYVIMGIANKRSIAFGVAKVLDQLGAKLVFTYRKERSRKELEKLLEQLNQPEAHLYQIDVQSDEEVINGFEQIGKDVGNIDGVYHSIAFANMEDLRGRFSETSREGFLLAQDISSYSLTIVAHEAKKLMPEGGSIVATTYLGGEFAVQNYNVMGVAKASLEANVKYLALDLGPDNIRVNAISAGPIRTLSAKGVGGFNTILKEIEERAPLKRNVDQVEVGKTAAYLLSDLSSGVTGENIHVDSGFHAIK
# Biological target: S. aureus ATCC 29213 FabI (Staphylococcus aureus, UniProt Q6GI75)
# Test: Staphylococcus aureus FabI enzyme inhibition assay
# Type: biochemical
# Conditions: 30 minutes at room temperature, NADH consumption
# Method: FabI enzyme inhibition assays were carried out in half-area, 384-well microtitre plates. Compounds were evaluated in 40-μl assay mixtures containing 100 mM NaADA, pH 6.5 (ADA=N-[2-acetamido]-2iminodiacetic acid), 250 μM crotonoyl-CoA, 625 μM NADH and 50 μg/ml S. aureus ATCC 29213 FabI Inhibitors were typically varied over the range of 50 to 0.39 μM. The reaction mixtures were incubated for 30 minutes at room temperature and the reaction was stopped by adding 200 mM Tris buffer (pH 9.0) to create a pH-shift. The consumption of NADH was monitored by measuring the change in absorbance at […]. By comparing sample readings to those of negative (absence of compound) and positive (absence of enzyme) controls, the percent inhibition of enzymatic activity of the compounds was determined. A best-fit curve is fitted by a minimum of squares method. From this an IC50-value (expressed in μg/ml), resulting in 50% inhibition of enzymatic activity, was obtained.
row,SMILES,FabI IC50
1,COc1ccccc1C1CCCN(C(=O)/C=C/c2cnc3c(c2)CCC(=O)N3)CC1 (stereo not shown),0.48 µg/mL
2,O=C1CCc2cc(/C=C/C(=O)N3CCCC(F)(F)CC3)cnc2N1,4.22 µg/mL
3,O=C1CCc2cc(/C=C/C(=O)N3CCC=C(c4cc(F)cc(Cl)c4)CC3)cnc2N1,0.66 µg/mL
4,CC1=C(c2ccccc2)CCCN(C(=O)/C=C/c2cnc3c(c2)CCC(=O)N3)C1,1.07 µg/mL
5,O=C1CCc2cc(/C=C/C(=O)N3CCC=C(c4cc(Cl)cc(Cl)c4)CC3)cnc2N1,1.09 µg/mL
6,O=C1CCc2cc(/C=C/C(=O)N3CCC=C(c4ccccc4OC(F)(F)F)CC3)cnc2N1,0.68 µg/mL
7,O=C1CCc2cc(/C=C/C(=O)N3CCC=C(c4cccc(OC(F)(F)F)c4)CC3)cnc2N1,0.76 µg/mL
8,O=C1CCc2cc(/C=C/C(=O)N3CC=C(c4cc(F)cc(Cl)c4)CCC3)cnc2N1,0.72 µg/mL
9,O=C1CCc2cc(/C=C/C(=O)N3CC=C(c4nccs4)CCC3)cnc2N1,0.41 µg/mL
10,O=C1CCc2cc(/C=C/C(=O)N3CCC=C(c4cccc(Cl)c4Cl)CC3)cnc2N1,0.82 µg/mL
11,O=C1CCc2cc(/C=C/C(=O)N3CC=C(c4cccc(Cl)c4Cl)CCC3)cnc2N1,0.84 µg/mL
12,O=C1CCc2cc(/C=C/C(=O)N3CC=C(c4cc(Cl)cc(Cl)c4)CCC3)cnc2N1,1.01 µg/mL
13,O=C1CCc2cc(/C=C/C(=O)N3CCC=C(c4cccs4)CC3)cnc2N1,0.4 µg/mL
14,O=C1CCc2cc(/C=C/C(=O)N3CCCC(n4cccc4)CC3)cnc2N1 (stereo not shown),1.70 µg/mL
15,O=C1CCc2cc(/C=C/C(=O)N3CCC=C(c4nccs4)CC3)cnc2N1,0.39 µg/mL
16,O=C1CCc2cc(/C=C/C(=O)N3CC=C(c4ccccc4OC(F)(F)F)CCC3)cnc2N1,0.68 µg/mL
